Data taken from PMC8956657 (Nature Communications, 2022).

What was measured:
[1] = target: T1, IMPα3 lacking the IBB domain (residues 64-521) (UniProt O00629 64-521); assay: crystal structure; conditions: both partners purified
T1 construct: also called ΔIBB-IMPα3; KPNA4
T1 sequence (looked up): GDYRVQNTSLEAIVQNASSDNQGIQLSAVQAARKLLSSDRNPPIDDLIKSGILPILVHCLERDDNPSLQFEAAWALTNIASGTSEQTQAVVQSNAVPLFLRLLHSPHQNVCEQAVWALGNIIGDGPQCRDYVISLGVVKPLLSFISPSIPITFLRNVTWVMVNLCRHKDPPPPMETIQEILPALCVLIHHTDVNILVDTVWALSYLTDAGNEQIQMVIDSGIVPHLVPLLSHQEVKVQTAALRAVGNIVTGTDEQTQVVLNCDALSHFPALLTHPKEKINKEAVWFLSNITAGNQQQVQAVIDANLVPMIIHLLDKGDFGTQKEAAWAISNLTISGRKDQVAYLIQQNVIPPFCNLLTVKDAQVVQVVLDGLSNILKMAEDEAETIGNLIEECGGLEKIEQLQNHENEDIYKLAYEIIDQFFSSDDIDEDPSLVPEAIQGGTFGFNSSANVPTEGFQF

[2] = target: IMPα2 lacking the IBB domain (residues 70-529) (UniProt P52293 70-529); assay: crystal structure; conditions: both partners purified

Binder: RKARKRSHSPTKKLRYVKRRF (domain or fragment) [MERS-CoV ORF4b NLS region (residues 19-39), recombinant]
- binding result [1]: binds
- binding result [2]: binds
